The record followed here is publication PMC7587356, “High-Throughput Screening for Inhibitors of the SARS-CoV-2 Protease Using a FRET-Biosensor” (Molecules, 2020).

Where two headings read alike, the source gives them in different places.

The experiment has as its target SARS-CoV-2 3CLpro (Severe acute respiratory syndrome coronavirus 2, UniProt P0DTD1).

In turn, (±)-Atenolol yielded a Replicate_1 of -0.6467, a Replicate_2 of 2.515 and a mean of 0.9342.

Foliosidine: the Replicate_1 (sheet LOPAC_screen_w_protease, primary screen of LOPAC1280 at 5 µM with protease, replicate 1) worked out at 4.819.

Regarding S(-)-DS 121 hydrochloride, the Replicate_2 (sheet LOPAC_screen_w_protease, primary screen with protease, replicate 2) is listed as 1.663.

As to S(-)-UH-301 hydrochloride, the “Replicate_2 (LOPAC_screen_w_protease)” value (LOPAC1280 primary screen with protease, 5 µM compound, replicate 2) was 1.6636.
